The supplement of paper PMC9931576
Human monoclonal antibodies against the spike receptor-binding domain (heavy:light variable regions). IC50 against pseudoviruses bearing the spike of naturally observed variants; lower = stronger; >10 µg/ml means not reached at the top dose. No active / inactive call. The stated detection limit is 0.0005 µg/ml; values near or below 0.001 µg/ml lie at the floor of the assay.

B1: BD56-173 (protein)
chain 1: QLQLQESGPRLVKPSETLSLTCTVSGGSISRTSYYWGWIRQPPGKGLEWIGSIYYNENTLYNPSLKSRVTISVDTSKNQFSLKLSSVTAADTAVYYCARDAPGIFNRDGYIRWFDSWGQGTLVTVSS
chain 2: DIQMTQSPSTLSASVGDRVTITCRATQSINGWLAWYQQKPGKAPKLLIDKASTLESGVPSKFSASGFGTEFTLTVSNLQPDDFATYYCQHYNSYSPMFTFGQGTKLEIK
B2: BD56-174 (protein)
chain 1: EVQLVESGGGVVQPGGSLRLSCAASGFSFSSYEMNWVRQAPGKGLEWLSYISNSGGTTYYAESVKGRFTVSRDNAKSTMYLQMRGLRAEDTAVYYCARDGGALSFYPNWFDPWGQGTLVTVSS
chain 2: QSALTQPASVSGSPGQSITISCTGTSSDVGGYDYVSWYQQHPGKAPKLMIYDVTERPSGVSSRFSGSKSGNTASLTISGLQADDEAHYYCSSSTSTVLFGGGTKLTVL
B3: BD56-179 (protein)
chain 1: QVQLVESGGGVVQPGRSLRLSCAVSGFTFSNYGMHWVRQAPGKGLEWVAVMSYDGTNKYYTDSVKGRFTISRDNSKNTLYLQMNSLRAEDTAVYYCARDGEPCSSASCYYSLWPESYMDVWGKGTTVTVSS
chain 2: EIVLTQSPGTLSLSPGERATLSCRASQSVSSTYLAWYQQKPGQAPRLVIYGASSRATGIPDRFSGSGSGTDFTLTISRLEPEDFAVYYCQQYGTSPPFTFGPGTKVDIK
B4: DH1161-1 (protein)
chain 1: QVQLVQSGAEVKKPGALLRVSCKASGDTSTNHGISWVRQAPGQGLEWMGWINVYNGRTNYAQKVQGRVTMTTDTSTSTAYMELRSLRSDDTAVYYCARWIHRDFDWLPYGMFMDVWGQGTTVTVSS
chain 2: QSALTQPPSASGSPGQSVTISCTGTSSDVGVYKYVSWYQHHPGKAPKLMVYEVSKRPSGVPDRFSGSKSGNTASLTVSGLQAEDEADYYCTSYEGDNTLVFGGGTKLTVL
B5: BD56-184 (protein)
chain 1: EVRLVESGGGLVQPGRSLRLSCTASGFTFGAYGMSWVRQAPGKGLEWVGFIRSKAYGGAIEYAASVEGRFTISRDDSKSCAYLQMNSLKTEDTAVYFCIRVDQWLSSPQTHGDIFDYWGQGILVTVSS
chain 2: QSALTQPASVSGSPGQSITISCTGTSSDVGNYDSVSWFQQHPGKAPKLVISDVSNRPSGTSNRFSGSKSGSTASLTISGLQAEDEADYYCSSYTSSSTYVFGTGTKVNVL
B6: BD56-185 (protein)
chain 1: EVQLVESGGGLVQPGRSLRLSCTASGFTFGVYAMSWVRQAPGKGLEWVGFIRSKAYGGATEYAASVEGRFTISRDDYKNIAYLQMNSLKTEDTAVYYCVRVEQWLSSPQTHGDYFDYWGQGILVTVSS
chain 2: QSALTQPASVSGSPGQSISISCTGTSSDVGGYDYVSWFQQHPGKAPKLMIYDVSNRPSGVSNRFSGSKSGSTASLTISGLQAEDEADYYCSSYTTSSTFVFGSGTRVTVL
B7: BD56-187 (protein)
chain 1: QVQLVQSGAEVKKPGASVKVSCKASGYTFTGYFLYWVRQAPGQGLQWMGRINPNSGDTDYAQKFQGRVTMTRDTSISTAYLEMSRLRSDDTAVYYCAREPGYDILTDSFRDYWGQGTLVTVSS
chain 2: EIVMTQSPATLSVSPGERATLSCRASQSVSNNLAWYQQKPGQAPRLLIYGASTRATGIPARFSGSGSGTEFTLTINSLQSEDFAVYYCQHYNNWPPWTFGQGTKVEIK
B8: BD56-188 (protein)
chain 1: QVQLVQSGAEVKKPGASVKVSCKASGNTFTSYYIHWVRQAPGQGLEWMGIINPSGGSTTYAQKFQGRVTMTSDASTSTVYMTLTSLRSEDTAVYYCARGGVVPAARGEFDYWGQGTLVTVSS
chain 2: DIQMTQSPSTLSASVGDRVTITCRASQSISTWLAWYQQKPGMAPKLLIYKASNLESGVPSRFSGSGSGTEFTLTISSLQPDDFATYYCQQSSSFFYTFGQGTKLEIK
B9: BD56-189 (protein)
chain 1: EDHLVESGGGLVQPGGSLRLSCAASGFTFSSYSMNWVRLAPGKGPEWVSHISSTSANIYYADSVKGRFIISRDNAKQSLYLQMNSLRAEDTAVYFCARDSKTDSSGPSAEWFDPWGQGTLVTVSS
chain 2: SYVLTQPPSVSVAPGKTARITCGGNNIGSKSVHWYQRKPGQAPVVVIFYDSDRPSTIPERFSGSNSGNTATLTINRVEAGDEADYYCQVWDSGVVFGGGTKLTVL
B10: DH1173 (protein)
chain 1: QVQLVQSGAEVKKPGASVKVSCKASGYTFTGYYMHWVRQAPGQGLEWMGWINPNSGATNYAQKFQGWVTMTRDTSINTAYMELRRLKSDDTAVFYCARETSFAIFGGGGMDVWGQGTTVTVSS
chain 2: QSALTQPASVSGSPGQSITISCTGTSSDIGSYNLVSWYQQHPGKAPKLMIYEGSKRPSGVSNRFSGSKSGNTASLTISGLQAEDEADYYCCSYAGSSTYVFGTGTKVTVL
B11: BD56-191 (protein)
chain 1: QLVEFGGGLVKPGGSLRLSCAASGFTFSDYYMSWIRQAPGKGLEWLSYISSGGDYIYYGDSVTGRFTVSRDNAKNVLYLQMNSLRADDTAVYYCARGGSLYSSSFEWVADSWGQGTLVTVSS
chain 2: QSVLTQPPSASGTPGRGVTISCSGGSSNIGGNYVSWYQQLPGTAPKLLIYWNTQRPSGVPDRFSGSKSGSSASLAISGLRSEDEADYYCAAWADRLGGPVFGGGTRLTVL
B12: BD56-196 (protein)
chain 1: QITLKESGPTLVKPTQTLTLTCTFSGFSLSTSGVGVGWIRQPPGKALEWLALIYWDDDKRYSPSLKSRLTITKDASKNHVVLTMTNMDPVDTATYYCALKDYDGSGRSLNWGYFDYWGQGTLVTVSS
chain 2: DIQMTQSPSSLSASVGDRVTITCRASQSIDIYLNWYQQKRGKAPNLLIYAASSLQNGVPSRFTGSGSGTDFTLTISSLQPEDFATYFCQQSYSNLYTFGQGTKLEIK

Biological target: SARS-CoV-2 Omicron BA.1 spike pseudovirus
Assay: pseudovirus neutralization IC50; higher = weaker neutralization
Description: (§1)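 Single-round VSV luciferase pseudovirus mixed with antibody dilutions for 1 h and put on Huh-7 cells for about a day; IC50 from the dose curve.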

Row | Binder | pseudovirus neutralization IC50 [µg/mL]
1 | B1 | > 10
2 | B2 | > 10
3 | B3 | 7.84
4 | B4 | > 10
5 | B5 | > 10
6 | B6 | 9.59
7 | B7 | 0.0035
8 | B8 | 2.41
9 | B9 | > 10
10 | B10 | > 10
11 | B11 | > 10
12 | B12 | 4.49

Biological target: SARS-CoV-2 Omicron BA.2 spike pseudovirus
Assay: as above
Description: as §1

Row | Binder | pseudovirus neutralization IC50 [µg/mL]
13 | B1 | > 10
14 | B2 | > 10
15 | B3 | > 10
16 | B4 | > 10
17 | B5 | > 10
18 | B6 | > 10
19 | B7 | 0.00624
20 | B8 | 2.7
21 | B9 | > 10
22 | B10 | > 10
23 | B11 | > 10
24 | B12 | 3.89

Biological target: SARS-CoV-2 Omicron BA.2.75 spike pseudovirus
Assay: as above
Description: as §1

Row | Binder | pseudovirus neutralization IC50 [µg/mL]
25 | B1 | > 10
26 | B2 | > 10
27 | B3 | > 10
28 | B4 | > 10
29 | B5 | > 10
30 | B6 | > 10
31 | B7 | 0.112
32 | B8 | 2.34
33 | B9 | > 10
34 | B10 | > 10
35 | B11 | > 10
36 | B12 | 3.04

Biological target: SARS-CoV-2 Omicron BA.5 spike pseudovirus
Assay: as above
Description: as §1

Row | Binder | pseudovirus neutralization IC50 [µg/mL]
37 | B1 | > 10
38 | B2 | > 10
39 | B3 | > 10
40 | B4 | > 10
41 | B5 | > 10
42 | B6 | > 10
43 | B7 | 0.985
44 | B8 | 4.08
45 | B9 | > 10
46 | B10 | > 10
47 | B11 | > 10
48 | B12 | 5.08

Biological target: SARS-CoV-2 Omicron BQ.1.1 spike pseudovirus
Assay: as above
Description: as §1

Row | Binder | pseudovirus neutralization IC50 [µg/mL]
49 | B1 | > 10
50 | B2 | > 10
51 | B3 | > 10
52 | B4 | > 10
53 | B5 | > 10
54 | B6 | > 10
55 | B7 | > 10
56 | B8 | 3.69
57 | B9 | > 10
58 | B10 | > 10
59 | B11 | > 10
60 | B12 | 2.44

Biological target: SARS-CoV-2 Omicron XBB spike pseudovirus
Assay: as above
Description: as §1

Row | Binder | pseudovirus neutralization IC50 [µg/mL]
61 | B1 | > 10
62 | B2 | > 10
63 | B3 | > 10
64 | B4 | > 10
65 | B5 | > 10
66 | B6 | > 10
67 | B7 | > 10
68 | B8 | 4.47
69 | B9 | > 10
70 | B10 | > 10
71 | B11 | > 10
72 | B12 | 5.17

Biological target: SARS-CoV-2 early D614G spike pseudovirus
Assay: as above
Description: as §1

Row | Binder | pseudovirus neutralization IC50 [µg/mL]
73 | B1 | > 10
74 | B2 | > 10
75 | B3 | > 10
76 | B4 | > 10
77 | B5 | > 10
78 | B6 | > 10
79 | B7 | 0.0547
80 | B8 | 2.02
81 | B9 | > 10
82 | B10 | 0.0095
83 | B11 | > 10
84 | B12 | 5.27
